Here are results for one molecule from patent publication US20090305339A1, “Polypeptides With Laccase Activity” (VIALACTIA BIOSCIENCES (NZ) LIMITED, priority 2006, published 2009).

The data set is described as follows: Copper content by ICP-MS.

B1: YfiH: DUF152 domain containing hypothetical protein from Escherichia coli, Gene Bank AAG57706, identified as laccase (FIG. 13) (protein, listed as Escherichia coli)
chain: MSKLIVPQWPLPKGVAACSSTRIGGVSLPPYDSLNLGAHCGDNPDHVEENRKRLFAAGNLPSKPVWLEQVHGKDVLNLTGEPYASKRADASYSNTPGRVCAVMTADCLPVLFCNRAGTEVAAAHAGWRGLCAGVLEETVSCFADNPENILAWLGPAIGPRAFEVGAEVREAFMAVDAEASTAFIQHGDKYLADIYQLARQRLANVGVEQIFGGDRCTYTENETFFSYRRDKTTGRMASFIWLI
modifications: Description of sequence amino acid sequence of protein YfiH with unknown function DUF152 from Escherichia coli (Gene Bank accession number AAG57706) (see Fig. 13)
As to B1, the copper content was 4.0 molecules of copper per monomer.
